PubChem BioAssay AID1259414 – Drosophila RNAi Screening Center | 2018
Test: 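Fly genes that alter Wolbachia amount inside host cells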 (primary screen). Cell system: Drosophila JW18 cells infected with Wolbachia. Knock-down reagent: long dsRNA against Drosophila genes, 0.25 µg dsRNA per well of a 384-well plate. Duration: 5 days. Challenge: cells persistently infected with Wolbachia before knock-down; no added drug. Detection: 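Imaged fluorescence in situ signal for Wolbachia 23S rRNA per DAPI-counted host cell, given as a robust z-score within each plate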. Reading the numbers: Wolbachia per cell robust z: higher = more Wolbachia per host cell than the plate typical. Rule for the call: 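Hit when robust z is 1.5 or more, or -1.5 or less, in at least two of three replicates; excludes dsRNAs with several or no targets, genes not expressed in JW18 and well A1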.
The screen tested about 24,000 reagents; shown is a random part of those that have a named target and a result. In the full data, about 1,210 (5%) are marked active. 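Inactive calls also include excluded dsRNAs with several or no targets, genes unexpressed in JW18, and well A1, regardless of score.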 A number with no mark means an inactive call. The numbers tell different reagents against one gene apart. A plus sign joins genes that one reagent is predicted to hit.

Wolbachia per cell robust z, rep 1 | Wolbachia per cell robust z, rep 2 | Wolbachia per cell robust z, rep 3 | target | reagent
-0.207 | -3.31 | -0.569 | dre4 | 1
-1.19 | -7.34 | 1.41 | CG7806 | 1
-1.7 | -1.39 | -0.556 | Bet3 | 1
-1.42 | 0.541 | 0.538 | P5CS | 1
0.932 | 1.24 | -0.124 | P5CS | 2
-0.804 | 0.27 | -1.04 | Rap2l | 1
1.36 | -5.25 | -0.00185 | CG7139 | 1
0.378 | 1.7 | 0.41 | CG7139 | 2
0.636 | -0.0744 | -1.09 | BBS4 | 1
-1.81 | -3.11 | 0.28 | BBS4 | 2
-0.237 | -0.177 | 0.817 | l(1)G0196 + lncRNA:CR43493 | 1
0.461 | -0.834 | -0.954 | CR41243 + CG40160 | 1
0.459 | 1.44 | -7.3 | Nlg2 | 1
0.707 | -1.4 | 1.37 | Nlg2 | 2
-0.474 | 0.0332 | -0.24 | Nlg2 | 3
0.639 | 1.27 | 0.8 | SA1 | 1
2.83 | -0.228 | 0.849 | SA1 | 2
1.06 | 0.999 | 0.0328 | CG34425 | 1
-1.14 | -0.149 | -1.08 | CG34425 | 2
-0.555 | -1.84 | -1.23 | Nop10 | 1
-0.253 | 0.738 | -0.188 | CROT | 1
0.311 (active) | -3.36 | -4.19 | CROT | 2
-0.862 | 0.971 | 0.535 | CROT | 3
0.415 | -0.629 | -1.57 | CG12539 | 1
-0.238 | 1.5 | 0.782 | CG12539 | 2
-0.496 | 0.258 | 0.189 | klg | 1
-0.198 | 0.43 | 1.04 | klg | 2
-0.298 | 0.703 | 1.57 | CG7560 | 1
-9.7 | -1.46 | -0.0988 | bin | 1
-7.35 | -1.31 | -6.73 | bin | 2
-0.715 | -0.636 | 0.719 | CG14854 | 1
0.641 | 0.0411 | -0.74 | CG11694 | 1
-2.56 | -1.27 | -3.69 | CG11694 | 2
0.555 | -0.204 | 0.791 | CG11694 | 3
-0.13 | 0.917 | -0.793 | CG16779 | 1
-0.197 | -0.511 | 1.38 | GstE12 | 1
-0.797 | -0.205 | -0.63 | GstE12 | 2
-0.133 (active) | -5.6 | -7.36 | a6 | 1
1.19 | 1.49 | -0.0663 | Pfdn5 | 1
0.155 | -3.59 | 0.558 | ppk27 | 1
-3.58 | -1.18 | -1.06 | ppk27 | 2

Next part, starting with the last 4 of the part before.
Wolbachia per cell robust z, rep 1 | Wolbachia per cell robust z, rep 2 | Wolbachia per cell robust z, rep 3 | target | reagent
-0.133 (active) | -5.6 | -7.36 | a6 | 1
1.19 | 1.49 | -0.0663 | Pfdn5 | 1
0.155 | -3.59 | 0.558 | ppk27 | 1
-3.58 | -1.18 | -1.06 | ppk27 | 2
-0.919 | 0.303 | 0.669 | Npl4 | 1
-3.54 | 0.679 | -1.13 | Npl4 | 2
-0.042 | -2.57 | 0.381 | TfIIA-S | 1
0.567 | -2.5 | -0.197 | 5-HT1A | 1
1.37 | 0.266 | 0.672 | 5-HT1A | 2
1.37 | 0.469 | 1.51 | CG7309 | 1
-0.654 | 0.85 | 0.809 | CG7309 | 2
0.602 | -0.0965 | 0.706 | Awh | 1
0.494 | 0.795 | 1 | CG34150 | 1
0.83 | 0.649 | 0.399 | CG34348 | 1
0.919 | 0.688 | -0.897 | CG34348 | 2
0.501 | 0.792 | 1.2 | Arl2 | 1
0.428 | -0.834 | 0.987 | CG4563 | 1
-0.766 | 1.16 | 0.953 | CG18266 | 1
-0.16 | 0.0143 | -1.24 | CR10991 | 1
0.937 | 1.63 | 0.691 | raptor | 1
-0.408 | 0.396 | -1.84 | CG7335 | 1
-0.347 | -1.22 | 0.198 | CG7335 | 2
-0.258 | 0.196 | -0.599 | CG7335 | 3
0.633 | 0.616 | 0.129 | Dhc16F | 1
-0.314 | -1.35 | 0.515 | CG32176 | 1
-3.79 (active) | 1.31 | -1.53 | CG32176 | 2
-0.464 | -2.63 | -0.942 | CG13531 | 1
-0.552 | -11 | 0.623 | Cpr30B | 1
0.789 | 1.22 | -2.37 | Cpr30B | 2
-1.24 | -1.06 | 0.0842 | CG34235 + CG30058 + CG34312 | 1
-0.615 | 0.467 | -2.18 | CG13947 | 1
-0.0361 | -0.309 | -0.678 | CG13947 | 2
